Legend:
[1] = ESI-MS collision-induced dissociation of dendrimer/DMPG [1:1]2+ complexes; assay type: physicochemical; settings: [1:1]2+ complex, gas phase, center-of-mass collision energy, single collision conditions; average of three measurements
[2] = ESI-MS collision-induced dissociation of dendrimer/DMPC [1:1]2+ complexes; assay type: physicochemical; settings: [1:1]2+ complex, gas phase, center-of-mass collision energy, single collision conditions; average of three measurements

Compound | Collision energy for 50% dissociation of the complex (CID50), DMPG/dendrimer [1] [eV] | Collision energy for 50% dissociation of the complex (CID50), DMPC/dendrimer [2] [eV]
NCCCC[C@H](NC(=O)OCc1ccccc1Cl)C(=O)NCCNC(=O)CCN(CCC[C@@H](C(=O)NCCc1cnc[nH]1)N(CCC(=O)NCCNC(=O)[C@H](CCCCN)NC(=O)OCc1ccccc1Cl)CCC(=O)NCCNC(=O)[C@H](CCCCN)NC(=O)OCc1ccccc1Cl)CCC(=O)NCCNC(=O)[C@H](CCCCN)NC(=O)OCc1ccccc1Cl [Dendrimer 3c] | 0.54 | 0.39
CCCCCCCCCCCCNC(=O)[C@H](CCCN(CCC(=O)NCCNC(=O)[C@H](CCCCN)NC(=O)OCc1ccccc1Cl)CCC(=O)NCCNC(=O)[C@H](CCCCN)NC(=O)OCc1ccccc1Cl)N(CCC(=O)NCCNC(=O)[C@H](CCCCN)NC(=O)OCc1ccccc1Cl)CCC(=O)NCCNC(=O)[C@H](CCCCN)NC(=O)OCc1ccccc1Cl [Dendrimer 3d] | 0.55 | 0.37
CCCCCCCCCCCCNC(=O)[C@H](CCCN(CCC(=O)NCCNC(=O)[C@@H](N)CCCCNC(=O)OCc1ccccc1Cl)CCC(=O)NCCNC(=O)[C@@H](N)CCCCNC(=O)OCc1ccccc1Cl)N(CCC(=O)NCCNC(=O)[C@@H](N)CCCCNC(=O)OCc1ccccc1Cl)CCC(=O)NCCNC(=O)[C@@H](N)CCCCNC(=O)OCc1ccccc1Cl [Dendrimer 3h] | 0.44 | 0.33

Reference: article PMC6270063, “Novel Antimicrobial Peptide Dendrimers with Amphiphilic Surface and Their Interactions with Phospholipids — Insights from Mass Spectrometry” (Molecules, 2013)
